Laboratory results published in patent publication US8563588B2, “Imidazolone derivatives, method for the preparation thereof and biological applications” (Universite de Rennes 1, priority 2007, dated 2013).

Molecular target: Rat recombinant DYRK1A (Rattus norvegicus, UniProt Q63470)
Assay: Assaying of the kinase activity of DYRK1A (33P-ATP, myelin basic protein, P81 filter);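 note: GST fusion rat DYRK1A made in E. coli, scintillation counting of label bound to substrate, activity as percent of the inhibitor-free maximum after blank subtraction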
Assay type: biochemical
Settings: 15 μM ATP, 30° C., 30 min

In the case of `CN1C(=O)/C(=C/c2ccc3c(c2)OCO3)N=C1SCCCl` [ST381], the IC50 is reported as 440 nM.
